Source: patent US10208000B2, “Eis inhibitors” (priority 2015, dated 2019)
For part of its entries the source gives two or more results. This is not the full list of results. The source may hold further records. Results that share an entry do not match, cause unknown; some may be repeats, others may stem from another dose, organism or construct than stated.

System: Mtb K204
Details: anti-TB activity of KAN against Mtb K204 with compound; KAN line = KAN alone

Compound: CN(c1ccc2ccccc2c1)S(=O)(=O)c1ccc2[nH]c(=O)c(=O)[nH]c2c1 [Compound 46]
- K204 MICKAN: ≤ 1.25 μg/mL and ≤1.25 μg/mL
